The exact form of at least one protein or probe is not confirmed. The comparison behind a weaker result is the experiment's own reference, which may not be listed here.
Target: rTcGAPDH (glyceraldehyde 3-phosphate dehydrogenase) (Trypanosoma cruzi) (UniProt P22513)
Experiment: EMSA
Conditions: NAD+ (50, 75, 100, uM), 1.35 uM GAPDH, dose-dependent inhibition (abstract: abolishes); 1x from 5x buffer: 20 mM HEPES pH 6.0, 1 mM EDTA, 10 mM (NH4)2SO4, 1 mM DTT, 0.2% Tween 20, 30 mM KCl; 0.1 ug poly-lysine, 1 ug poly[d(I-C)], 20 ul, on ice 15 min; recombinant protein; protein details: His-tag; single-stranded DNA

Chains of the proteins cited; added tags and fusions are not shown. Lines headed by an entry give the natural chain unless they say otherwise; changes in a name come on top.
UniProt P22513: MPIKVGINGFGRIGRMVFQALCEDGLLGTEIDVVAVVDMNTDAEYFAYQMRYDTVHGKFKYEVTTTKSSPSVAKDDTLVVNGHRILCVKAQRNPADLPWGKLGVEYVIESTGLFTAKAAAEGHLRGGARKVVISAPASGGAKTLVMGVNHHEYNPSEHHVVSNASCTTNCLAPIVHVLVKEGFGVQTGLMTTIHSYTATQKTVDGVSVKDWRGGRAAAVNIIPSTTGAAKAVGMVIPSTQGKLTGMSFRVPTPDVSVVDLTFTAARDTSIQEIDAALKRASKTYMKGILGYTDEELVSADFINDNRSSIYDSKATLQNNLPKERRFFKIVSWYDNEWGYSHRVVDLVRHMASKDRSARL

TTAGGGTTAGGGTTAGGGTTAGGGTTAGGGTTAGGG [ss (TTAGGG)6]
binding result: binds more weakly
